Experimental data as given in PMC9481026 (PLoS ONE, 2022).

Tested on: HepDES19
Conditions: ratio CC50 / EC50

Row | SMILES | SI HepDES19
1 | Cc1cc(O)c(=O)c(O)cc1C(=O)NCc1ccc(-c2ccccc2)cc1 [Compound 539] | <1.0
2 | Cc1cc(O)c(=O)c(O)cc1C(=O)c1ccccc1 [Compound 111] | 1.9
3 | Cc1cc(O)c(=O)c(O)c(O)c1C(=O)c1ccc(-c2ccccc2)cc1 [Compound 362] | 2.1
4 | O=c1c(O)ccc(-c2ccco2)cc1O [Compound 265] | 1.7
5 | CC(=O)c1c(C)cc(O)c(=O)c(O)c1-c1cccc2ccccc12 [Compound 331] | 2.3
6 | Cc1ccc(Sc2cccc(O)c(=O)c2O)cc1 [Compound 838] | 1.5
7 | Cc1cc(O)c(=O)c(O)cc1C(=O)c1ccccc1O [Compound 311] | 2.7
8 | CC(=O)c1c(C)cc(O)c(=O)c(O)c1-c1ccccc1 [Compound 330] | 5.4
9 | Cc1ccc(/C=C/C(=O)c2ccccc(=O)c2O)cc1 [Compound 340] | 0.7
10 | O=C(/C=C/c1cccc(Br)c1)c1ccccc(=O)c1O [Compound 341] | 0.7
11 | Cc1cc(O)c(=O)c(O)cc1C(=O)c1cccs1 [Compound 308] | 22.2
12 | CC(=Nc1ccc(C(F)(F)F)cc1)c1c(C)cc(=O)n(O)c1O [Compound 517] | <1.0
13 | CCCCNC(=O)c1cc(O)c(=O)c(O)cc1C [Compound 1039] | <1.0
14 | Cc1cc(O)c(=O)c(O)cc1C(=O)c1ccc(Br)cc1 [Compound 358] | 1.4
15 | O=c1c(O)cccc(S(=O)(=O)c2cccc3ccccc23)c1O [Compound 698] | 1.2
16 | Cc1cc(O)c(=O)c(O)cc1C(=O)NCc1ccccc1 [Compound 388] | 2.2
17 | CC1=CC(O)N(O)C(O)=C1C(C)=Nc1ccccc1N (stereo not shown) [Compound 208] | <1.0
18 | Cc1cc(O)c(=O)c(O)cc1C(=O)N1CCCCC1 [Compound 390] | 2.5
19 | CCCCSc1ccc(SCCCC)c(O)c(=O)c1O [Compound 694] | <1.0

Row | SMILES | SI HepDES19
20 | COC(=O)c1c(C)cc(O)c(=O)c(O)c1O [Compound 196] | 0.251
21 | O=c1c(O)c(SCc2ccccc2)ccc(SCc2ccccc2)c1O [Compound 703] | <1.0
22 | CC(=Nc1ccccc1Cl)c1c(C)cc(=O)n(O)c1O [Compound 668] | 4.0
23 | CCCCCCSc1cccc(O)c(=O)c1O [Compound 840] | <1.0
24 | Cc1cc(O)c(=O)c(O)cc1C(=O)c1ccc(-c2ccncc2)cc1 [Compound 260] | 1.4
25 | Cc1cc(O)c(=O)c(O)cc1C(=O)c1ccccc1O [Compound 359] | 3.8
26 | O=c1c(O)cccc(SCCc2ccccc2)c1O [Compound 704] | 1.5
27 | COc1ccc(/C=C/C(=O)c2ccccc(=O)c2O)cc1 [Compound 342] | 0.548
28 | Cc1cc(O)c(=O)c(O)cc1-c1ccccc1 [Compound 113] | 4.6
29 | Cc1cc(O)c(=O)c(O)cc1C(=O)N[C@@H](CCC(=O)OC(C)(C)C)C(=O)OC(C)(C)C [Compound 867] | <1.0
30 | CCc1cccc(N=C(C)c2c(C)cc(=O)n(O)c2O)c1 [Compound 518] | 4.6
31 | Cc1cc(O)c(=O)c(O)cc1C(=O)N1CCN(C(c2ccc(F)cc2)c2ccc(F)cc2)CC1 [Compound 1017] | <1.0
32 | O=C1C=CC(=O)c2ccccc21 [Compound 327] | 0.466
33 | Cc1cc(O)c(=O)c(O)cc1C(=O)Nc1ccccc1 [Compound 389] | 3.0
34 | CC(=O)c1c(C)cc(O)c(=O)c(O)c1Br [Compound 320] | 1.5
35 | CSc1cccc(O)c(=O)c1O [Compound 385] | 4.0
36 | Cc1cc(O)c(=O)c(O)cc1C(=O)C1CCCCC1 [Compound 120] | 2.7
37 | C/C(=N\c1ccc(Cl)c(Cl)c1)c1c(C)cc(O)n(O)c1=O [Compound 670] | 4.9
